According to patent publication US12618095B2, “Medium for Bacillus cereus group detection” (SHIMADZU DIAGNOSTICS CORPORATION, priority 2020, dated 2026):

Experiments:
E. amnigenus = experiment: Test Example 10: agar medium with aztreonam or ceftazidime; details: ATCC33072, 22 hours
B. thuringiensis = experiment: Test Example 9: concentration of amphotericin B; assay type: cell-based; details: NBRC101235

C[C@H]1[C@H](NC(=O)/C(=N\OC(C)(C)C(=O)O)c2csc(N)n2)C(=O)N1S(=O)(=O)O [aztreonam]
colony color (E. amnigenus; Aztreonam 0.05 mg, 10^5 cfu/mL): (White)

CC(C)(O/N=C(\C(=O)N[C@@H]1C(=O)N2C(C(=O)[O-])=C(C[n+]3ccccc3)CS[C@H]12)c1csc(N)n1)C(=O)O [ceftazidime]
colony color (E. amnigenus; Ceftazidime 0.05 mg, 10^3 cfu/mL): (White)
colony color (E. amnigenus; Ceftazidime 0.05 mg, 10^4 cfu/mL): (White)
colony color (E. amnigenus; Ceftazidime 0.05 mg, 10^5 cfu/mL): (White)

C[C@@H]1[C@H](O)[C@@H](C)/C=C/C=C/C=C/C=C/C=C/C=C/C=C/[C@H](O[C@@H]2O[C@H](C)[C@@H](O)[C@H](N)[C@@H]2O)C[C@@H]2O[C@](O)(C[C@@H](O)C[C@@H](O)[C@H](O)CC[C@@H](O)C[C@@H](O)CC(=O)O[C@H]1C)C[C@H](O)[C@H]2C(=O)O [Amphotericin B]
colony color (B. thuringiensis; Amphotericin B 0.1 mg, 24 hours, 10^2 cfu/mL): (Blue)
colony color (B. thuringiensis; Amphotericin B 0.1 mg, 24 hours, 10^3 cfu/mL): (Blue)
colony color (B. thuringiensis; Amphotericin B 0.1 mg, 24 hours, 10^4 cfu/mL): (Blue)
colony color (B. thuringiensis; Amphotericin B 0.1 mg, 24 hours, 10^5 cfu/mL): (Blue)
colony color (B. thuringiensis; Amphotericin B 0.1 mg, 44 hours, 10^2 cfu/mL): (Blue)
colony color (B. thuringiensis; Amphotericin B 0.1 mg, 44 hours, 10^3 cfu/mL): (Blue)
colony color (B. thuringiensis; Amphotericin B 0.1 mg, 44 hours, 10^4 cfu/mL): (Blue)
colony color (B. thuringiensis; Amphotericin B 0.1 mg, 44 hours, 10^5 cfu/mL): (Blue)
colony color (B. thuringiensis; Amphotericin B 1.0 mg, 24 hours, 10^2 cfu/mL): (Blue)
colony color (B. thuringiensis; Amphotericin B 1.0 mg, 24 hours, 10^3 cfu/mL): (Blue)
colony color (B. thuringiensis; Amphotericin B 1.0 mg, 24 hours, 10^4 cfu/mL): (Blue)
colony color (B. thuringiensis; Amphotericin B 1.0 mg, 24 hours, 10^5 cfu/mL): (Blue)
colony color (B. thuringiensis; Amphotericin B 1.0 mg, 44 hours, 10^2 cfu/mL): (Blue)
colony color (B. thuringiensis; Amphotericin B 1.0 mg, 44 hours, 10^3 cfu/mL): (Blue)
colony color (B. thuringiensis; Amphotericin B 1.0 mg, 44 hours, 10^4 cfu/mL): (Blue)
colony color (B. thuringiensis; Amphotericin B 1.0 mg, 44 hours, 10^5 cfu/mL): (Blue)
colony color (B. thuringiensis; Amphotericin B 10 mg, 24 hours, 10^2 cfu/mL): (Blue)
colony color (B. thuringiensis; Amphotericin B 10 mg, 24 hours, 10^3 cfu/mL): (Blue)
colony color (B. thuringiensis; Amphotericin B 10 mg, 24 hours, 10^4 cfu/mL): (Blue)
colony color (B. thuringiensis; Amphotericin B 10 mg, 24 hours, 10^5 cfu/mL): (Blue)
colony color (B. thuringiensis; Amphotericin B 10 mg, 44 hours, 10^2 cfu/mL): (Blue)
colony color (B. thuringiensis; Amphotericin B 10 mg, 44 hours, 10^3 cfu/mL): (Blue)
colony color (B. thuringiensis; Amphotericin B 10 mg, 44 hours, 10^4 cfu/mL): (Blue)
colony color (B. thuringiensis; Amphotericin B 10 mg, 44 hours, 10^5 cfu/mL): (Blue)
